Literature values, collected in US20210130445A1 (priority 2019, published 2021).

System: female Swiss-Webster mice
Conditions: cited from earlier work

Substance: abobotulinumtoxinA
- units approximately equal in potency to one unit of onabotulinumtoxinA, as suggested by comparative studies (comparative studies): three to four
- units approximately equal in potency to one unit of BOTOX (onabotulinumtoxinA) (potency unit comparison of commercial formulations): 3 to 5 units
